Data as given in PubChem BioAssay AID624099 (ICCB-Longwood, 2012)

Test: 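Host factors E2 relies on to silence an HPV18 LCR reporter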 (primary screen)
Cell system: human C33A cervical carcinoma cells (HPV-negative) stably expressing BPV1 E2 and an HPV18 LCR luciferase reporter
Reagents: siRNA pool against human genes, 40 nM
Time to read-out: 72 h
Detection: 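HPV18 LCR reporter light per well, converted to plate-wise z-scores that exclude control wells, and averaged over triplicate plates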
Direction: mean z-score and z-score: higher = stronger reporter signal, weaker E2 silencing
Call rule: 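Mean z ≥ 2 together with z ≥ 2 in two or more of the three replicates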
In all, the deposit lists about 21,000 reagents; this is a part drawn at random. 497 of them (2.4%) were called active. 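Higher z means weaker E2 silencing; only reporter increases were scored, and knock-downs that hurt cell survival may mask genuine repressor factors.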 The numbers tell different reagents against one gene apart.

| mean z-score | z-score, replicate A | z-score, replicate B | z-score, replicate C | activity call | Target gene | pool no. |
| --- | --- | --- | --- | --- | --- | --- |
| 0.11 | -0.01 | 0.08 | 0.26 | inactive | CD164 | 1 |
| 1.31 | 1.25 | 1.42 | 1.25 | inactive | ITGB2 | 1 |
| 0.6 | 1.02 | 0.61 | 0.18 | inactive | RNASEH2B | 1 |
| -0.13 | -0.2 | 0.05 | -0.25 | inactive | MS4A8 | 1 |
| 0.23 | 0.42 | 0.31 | -0.04 | inactive | ENC1 | 1 |
| -0.45 | -0.4 | -0.26 | -0.68 | inactive | KRTAP8-1 | 1 |
| -0.68 | -0.39 | -0.85 | -0.8 | inactive | VCX3B | 1 |
| 0.17 | 0.09 | 0.18 | 0.25 | inactive | ASL | 1 |
| 0.78 | 0.88 | 1.13 | 0.34 | inactive | FAT4 | 1 |
| 0.15 | 0.27 | -0.04 | 0.21 | inactive | FAT4 | 2 |
| 0.22 | 0.5 | 0 | 0.17 | inactive | ULK1 | 1 |
| 1.45 | 1.46 | 1.72 | 1.18 | inactive | CPNE8 | 1 |
| -0.34 | -0.35 | -0.49 | -0.17 | inactive | ZNF195 | 1 |
| 0.7 | 1.32 | 0.72 | 0.06 | inactive | EPHA1 | 1 |
| -0.6 | -0.81 | -0.66 | -0.34 | inactive | MAP3K9 | 1 |
| 1.12 | 1.08 | 1.1 | 1.18 | inactive | CMTM7 | 1 |
| 0.37 | 0.35 | 0.45 | 0.32 | inactive | ABCC4 | 1 |
| 0.16 | -0.03 | 0.41 | 0.11 | inactive | CIRBP | 1 |
| -0.64 | -0.46 | -0.85 | -0.61 | inactive | SLFN5 | 1 |
| 0.09 | 0.2 | 0.18 | -0.12 | inactive | ATP6V0E2-AS1 | 1 |
| -0.65 | -0.57 | -0.77 | -0.61 | inactive | MAST2 | 1 |
| 0.33 | 0.23 | 0.47 | 0.28 | inactive | RBMS1 | 1 |
| 1.29 | 1.03 | 1.64 | 1.19 | inactive | RBMS1 | 2 |
| 0.52 | 0.97 | 0.32 | 0.28 | inactive | XPR1 | 1 |
| 0.62 | 0.44 | 0.71 | 0.71 | inactive | MPL | 1 |
| -0.88 | -0.98 | -0.96 | -0.69 | inactive | FABP5 | 1 |
| 0.95 | 0.91 | 0.87 | 1.07 | inactive | SOX9 | 1 |
| -0.99 | -0.99 | -1.07 | -0.93 | inactive | PSMC5 | 1 |
| 2.11 | 2.08 | 2.12 | 2.12 | active | GPR35 | 1 |
| 0.3 | 0.26 | 0.59 | 0.06 | inactive | OR6C68 | 1 |
| -0.51 | -0.28 | -0.41 | -0.83 | inactive | MBD1 | 1 |
| 1.51 | 1.53 | 1.08 | 1.93 | inactive | RANBP1P1 | 1 |
| 1.65 | 1.81 | 1.51 | 1.61 | inactive | BTN2A3P | 1 |
| 0.3 | 0.05 | 0.52 | 0.33 | inactive | TMPRSS2 | 1 |
| 0.64 | 0.94 | 0.16 | 0.81 | inactive | CFAP210 | 1 |
| -0.3 | -0.86 | -0.22 | 0.19 | inactive | ZNF341 | 1 |
| -0.22 | -0.04 | -0.36 | -0.25 | inactive | SLC22A2 | 1 |
| 1.83 | 1.79 | 1.67 | 2.02 | inactive | COL4A6 | 1 |
| 0.94 | 1.05 | 1.1 | 0.66 | inactive | MSANTD3 | 1 |
| -0.07 | -0.16 | -0.19 | 0.15 | inactive | LINC00174 | 1 |
| 1.12 | 1.43 | 0.55 | 1.37 | inactive | PLEKHM2 | 1 |
| 1.26 | 1.21 | 1.61 | 0.95 | inactive | TARS3 | 1 |
| -0.47 | -0.5 | -0.44 | -0.46 | inactive | CEACAM7 | 1 |
| 0.05 | 0.43 | -0.12 | -0.17 | inactive | MYL12BP2 | 1 |
| -1.35 | -1.56 | -1.09 | -1.41 | inactive | ZNF16 | 1 |
| -0.28 | -0.39 | -0.4 | -0.06 | inactive | GNL3LP1 | 1 |
| -0.34 | -0.62 | -0.25 | -0.16 | inactive | TNFRSF6B | 1 |
| 1.31 | 1.31 | 0.94 | 1.67 | inactive | SLC39A13 | 1 |
| -0.49 | -0.41 | -0.48 | -0.58 | inactive | TEAD3 | 1 |
| 2.08 | 2.05 | 2.29 | 1.91 | active | BCAN | 1 |
| -0.04 | -0.38 | 0.1 | 0.15 | inactive | MUC12 | 1 |
| 0.64 | 0.65 | 0.69 | 0.58 | inactive | MUC12 | 2 |
| 0.66 | 0.56 | 1.57 | -0.14 | inactive | ZBTB4 | 1 |
| 1.03 | 0.84 | 0.97 | 1.26 | inactive | TRMT10B | 1 |
| -0.1 | 0.11 | -0.22 | -0.18 | inactive | COMMD4 | 1 |
| -0.01 | 0.08 | -0.01 | -0.11 | inactive | LOC400623 (retired record) | 1 |
| -0.7 | -0.74 | -0.45 | -0.92 | inactive | IDO2 | 1 |

Part of the list above, reformatted:
{"Target gene": "ZNF341", "pool no.": 1, "mean z-score": -0.3, "z-score, replicate A": -0.86, "z-score, replicate B": -0.22, "z-score, replicate C": 0.19, "activity call": "inactive"}
{"Target gene": "SLC22A2", "pool no.": 1, "mean z-score": -0.22, "z-score, replicate A": -0.04, "z-score, replicate B": -0.36, "z-score, replicate C": -0.25, "activity call": "inactive"}
{"Target gene": "COL4A6", "pool no.": 1, "mean z-score": 1.83, "z-score, replicate A": 1.79, "z-score, replicate B": 1.67, "z-score, replicate C": 2.02, "activity call": "inactive"}
{"Target gene": "MSANTD3", "pool no.": 1, "mean z-score": 0.94, "z-score, replicate A": 1.05, "z-score, replicate B": 1.1, "z-score, replicate C": 0.66, "activity call": "inactive"}
{"Target gene": "LINC00174", "pool no.": 1, "mean z-score": -0.07, "z-score, replicate A": -0.16, "z-score, replicate B": -0.19, "z-score, replicate C": 0.15, "activity call": "inactive"}
{"Target gene": "PLEKHM2", "pool no.": 1, "mean z-score": 1.12, "z-score, replicate A": 1.43, "z-score, replicate B": 0.55, "z-score, replicate C": 1.37, "activity call": "inactive"}
{"Target gene": "TARS3", "pool no.": 1, "mean z-score": 1.26, "z-score, replicate A": 1.21, "z-score, replicate B": 1.61, "z-score, replicate C": 0.95, "activity call": "inactive"}
